In the assay the test system is Recombinant 6-34. Briefly: Drug sensitivity of HSV-1/HSV-2 intertypic Recombinant 6-34. The note with it: e.g. R6-34, R6-19, PAA^R1.

On to `Nc1nc2c(ncn2COCCO)c(=O)[nH]1` [Acycloguanosine, 9-(2-hydroxyethoxymethyl)guanine, reference compound], for which the “resistance of altered DNA polymerase mutants” value was “resistance”.
The result for `Nc1nc2c(ncn2COC2COP(=O)(O)OC2)c(=O)[nH]1` (stereo not shown) [Cyclic Monophosphate, Potassium 9-(1,3-dihydroxy-2-propoxymethyl)guanine cyclic monophosphate] reads “resistance”; that for `O=C(O)CP(=O)(O)O` [PAA, phosphonoacetic acid], “resistance”.
Consider `Nc1ncnc2c1ncn2[C@@H]1O[C@H](CO)[C@@H](O)[C@@H]1O` [adenine arabinoside], for which the “resistance of altered DNA polymerase mutants” value was “resistance”.

These data come from patent US4816447A, “Anti-viral guanine compounds” (priority 1984, dated 1989).
